According to patent US8937154B2, “Stabilized therapeutic small helical antiviral peptides” (priority 2006, dated 2015):
Where a SMILES comes first, the peptide text is derived from it. Bridges are numbered along the chain shown (N, C = ends). [ ]: non-standard residue; d: D form. R8 = C=CCCCCCC[C@@](C)(N)C(=O)O; S5 = C=CCCC[C@](C)(N)C(=O)O

Test system: 293T cells
Assay: Confocal microscopy of cell penetration
Type: cell-based
Details: fluorescently labelled peptide, live cells

| Compound | penetration of the cell membrane / uptake by cells |
| --- | --- |
| 5FAM-β-Ala-NYAD-40: 6-carboxyfluorescein (FAM)-labelled linear peptide NYAD-40 (ISFDELLDYYGESGS; 5-FAM-β-Ala N-terminal label; Linear peptide NYAD-40) [reference compound] | did not penetrate |
| CC[C@H](C)[C@H](N)C(=O)N[C@@H](CO)C(=O)N[C@@H](Cc1ccccc1)C(=O)N[C@]1(C)CCCCCC/C=C\CCC[C@@](C)(C(=O)N[C@@H](CCC(=O)O)C(=O)N[C@@H](CO)C(=O)NCC(=O)N[C@@H](CO)C(N)=O)NC(=O)[C@H](Cc2ccc(O)cc2)NC(=O)[C@H](Cc2ccc(O)cc2)NC(=O)[C@H](CC(=O)O)NC(=O)[C@H](CC(C)C)NC(=O)[C@H](CC(C)C)NC(=O)[C@H](CCC(=O)O)NC1=O [NYAD-36] (H-ISF[R8]ELLDYY[S5]ESGS-NH2; staple (Z) 4-11) | penetrated the cell membrane |
